Laboratory results as given in patent US11142584, “CD20-binding proteins comprising Shiga toxin A subunit effector regions for inducing cellular internalization and methods using same” (dated 2021).
Values joined by “and” are separate entries in the source; they are usually repeats but may differ in a detail not shown here. Equal entries are not always repeated. Where two headings read alike, the source gives them in different places.

Legend:
[1] = target: CD20 (B-lymphocyte antigen CD20) on human lymphoma cells, human (UniProt P11836)
[2] = target: CD20 (B-lymphocyte antigen CD20) on human lymphoma cells, human (UniProt P11836); assay: flow cytometry on Raji (CD20+) cells, multiple experiments

Substance | Kd [1] | Kd [2]
αCD20scFv1::SLT-1A version 2 | 101 nM | 
αCD20scFv1::SLT-1A version 1 | 82.5 nM | 80 nM and 100 nM
